This note sets out measurements from BindingDB's records for 26068018 (University of Florida, 2015).

Sequences of proteins named here, by UniProt entry; tags and fusion partners are left off. Residues count along the entry.
UniProt Q9HVB9, 1-215: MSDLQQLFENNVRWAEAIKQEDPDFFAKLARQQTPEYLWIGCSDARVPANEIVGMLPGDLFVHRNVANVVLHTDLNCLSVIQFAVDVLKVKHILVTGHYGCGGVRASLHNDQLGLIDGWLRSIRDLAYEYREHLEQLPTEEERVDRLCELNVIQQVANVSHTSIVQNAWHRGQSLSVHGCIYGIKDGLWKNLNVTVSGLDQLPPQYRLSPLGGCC

What is called Ki is a measure of affinity in units of concentration, obtained from inhibition or displacement.

The assay has as its target Carbonic anhydrase (Pseudomonas aeruginosa (strain ATCC 15692 / DSM 22644 / CIP 104116 / JCM 14847 / LMG 12228 / 1C / PRS 101 / PAO1), UniProt Q9HVB9). Kind of assay: Inhibition of Pseudomonas aeruginosa PAO1 type-2 beta-carbonic anhydrase psCA3 expressed in Escherichia coli Tuner BL21 (DE3) cells pre-incubated for 15 mins at pH 8.3 and 293K by CO2 hydration reaction based colorimetric stopped-flow method.

Regarding `[O]=[V]([OH])([OH])[O][V](=[O])([OH])[OH]`, the Ki stood at 4.9 mM.
